Assay results as given in article PMC9986795, “Structural basis of DNA binding by YdaT, a functional equivalent of the CII repressor in the cryptic prophage CP-933P from Escherichia coli O157:H7” (Acta Crystallographica. Section D, Structural Biology, 2023).

Experiments:
[1] = target: T1, YdaT (Escherichia coli O157:H7 (prophage CP-933P)) (UniProt A0A6M7H0F8); experiment: native MS; details: 200 mM ammonium acetate pH 8, tetramer with one or two duplexes; recombinant protein
[2] = target: T1, YdaT (Escherichia coli O157:H7 (prophage CP-933P)); experiment: SAXS; details: tetramer with two OM duplexes, ensemble model; recombinant protein

TCATGCTTGATTTTCATGAATCAACTCCAT (double strand) [OM]
binding result [1]: binds
binding result [2]: binds

For at least one entry, the source does not settle the construct or the ends of the probe.
